Data reported in patent US20200339511A1, “Substituted indoline derivatives as dengue viral replication inhibitors” (priority 2016, published 2020).

Columns and labels:
Assay type in all cases: cell-based, Dengue virus
[1] = tested on: DENV-1 strain TC974#666; experiment: Tetravalent RT-qPCR assay, serotype 1; conditions: RT-qPCR serotype 1 TC974#666, Protocol A
Description: (§1) Tetravalent reverse transcriptase quantitative-PCR (RT-qPCR) assay The antiviral activity of the compounds of the invention was tested against DENV-1 strain TC974#666 (NCPV), DENV-2 strain 16681, DENV-3 strain H87 (NCPV) and DENV-4 strain H241 (NCPV) in a RT-qPCR assay. Therefore, Vero cells were infected with either DENV-1, or -2, or -3, or -4 in the presence or absence of test compounds. At day 3 post-infection, the cells were lysed and cell lysates were used to prepare cDNA of both a viral target (the 3′UTR of DENV; Table 2) and a cellular reference gene (β-actin, Table 2). Subsequently, a duplex real time PCR was performed on a Lightcycler480 instrument. The generated Cp value is inversely proportional to the amount of RNA expression of these targets. Inhibition of DENV replication by a test compound results in a shift of Cp's for the 3′UTR gene. On the other hand, if a test compound is toxic to the cells, a similar effect on β-actin expression will be observed. The comparative ΔΔCp method is used to calculate EC50, which is based on the relative gene expression of the target gene (3′UTR) normalized with the cellular housekeeping gene (β-actin). In addition, CC50 values are determined based on the Cp values acquired for the housekeeping gene β-actin.
(§2) The culture medium consisted of minimal essential medium supplemented with 2% of heat-inactivated fetal calf serum, 0.04% gentamycin (50mg/mL) and 2 mM of L-glutamine. Vero cells, obtained from ECACC, were suspended in culture medium and 75 μL/well was added in 96-well plates (10000 cells/well), which already contain the antiviral compounds. […] In addition, each plate contains wells which are assigned as virus controls (containing cells and virus in the absence of compound) and cell controls (containing cells in the absence of virus and compound). Once the cells were added in the plates, the plates were incubated in a fully humidified incubator (37° C., 5% CO2) until the next day. Dengue viruses serotype-1, 2, 3 and 4 were diluted in order to obtain a Cp of ˜22-24 in the assay. Therefore, 25 μL of virus suspension was added to all the wells containing test compound and to the wells assigned as virus control. In parallel, 25 μL of culture medium was added to the cell controls. Next, the plates were incubated for 3 days in a fully humidified incubator (37° C., 5% CO2). After 3 days, the supernatant was removed from the wells and the cells were washed twice with ice-cold PBS (˜100 μL). The cell pellets within the 96-well plates were stored at −80° C. for at least 1 day. Next, RNA was extracted using the Cells-to-CT™ lysis kit, according to the manufacturer's guideline (Life Technologies). The cell lysates can be stored at −80° C. or immediately used in the reverse transcription step.
(§3) In preparation of the reverse transcription step, mix A (table 3A) was prepared and 7.57 μL/well was dispensed in a 96-well plate. After addition of 5 μL of the cell lysates, a five minute denaturation step at 75° C. was performed (table 3B). Afterwards, 7.43 μL of mix B was added (table 3C) and the reverse transcription step was initiated (table 3D) to generate cDNA.
(§4) Finally, a RT-qPCR mix was prepared, mix C (table 4A), and 22.02 μL/well was dispensed in 96-well LightCycler qPCR plates to which 3μL of cDNA was added and the qPCR was performed according to the conditions in table 4B on a LightCycler 480.
(§5) Using the LightCycler software and an in-house LIMS system, dose response curves for each compound were calculated and the half maximal effective concentration (EC50) and the half maximal cytotoxic concentration (CC50) were determined (Tables 5-8).

[2] = tested on: DENV-4 strain H241; experiment: Tetravalent RT-qPCR assay, serotype 4; conditions: RT-qPCR serotype 4 H241, Protocol A
Description: as §1, §2, §3, §4, §5

[3] = tested on: DENV-3 strain H87; experiment: Tetravalent RT-qPCR assay, serotype 3; conditions: RT-qPCR serotype 3 H87, Protocol A
Description: as §1, §2, §3, §4, §5

[4] = tested on: DENV-2 strain 16681; experiment: Tetravalent RT-qPCR assay, serotype 2; conditions: RT-qPCR serotype 2 16681, Protocol A
Description: as §1, §2, §3, §4, §5

[5] = tested on: DENV-2 16681 strain; experiment: DENV-2 antiviral assay (eGFP-labeled virus in Vero cells); conditions: SI=CC50/EC50, DENV-2 antiviral assay
Description: The antiviral activity of all the compounds of the invention was tested the against DENV-2 16681 strain which was labeled with enhanced green fluorescent protein (eGPF). The culture medium consists of minimal essential medium supplemented with 2% of heat-inactivated fetal calf serum, 0.04% gentamycin (50 mg/mL) and 2 mM of L-glutamine. Vero cells, obtained from ECACC, were suspended in culture medium and 25 μL was added to 384-well plates (2500 cells/well), which already contain the antiviral compounds. Typically, these plates contain a 5-fold serial dilution of 9 dilution steps of the test compound at 200 times the final concentration in 100% DMSO (200 nL). […] Finally, each plate contains wells which are assigned as virus controls (containing cells and virus in the absence of compound), cell controls (containing cells in the absence of virus and compound) and medium controls (containing medium in the absence of cells, virus and compounds). To the wells assigned as medium control, 25 μL of culture medium was added instead of Vero cells. Once the cells were added to the plates, the plates were incubated for 30 minutes at room temperature to allow the cells to distribute evenly within the wells. Next, the plates were incubated in a fully humidified incubator (37° C., 5% CO2) until the next day. Then, DENV-2 strain 16681, labeled with eGFP, was added at a multiplicity of infection (MOI) of 0.5. Therefore, 15 μL of virus suspension was added to all the wells containing test compound and to the wells assigned as virus control. In parallel, 15 μL of culture medium was added to the medium and cell controls. Next, the plates were incubated for 3 days in a fully humidified incubator (37° C., 5% CO2). At the day of the read out, the eGFP fluorescence was measured using an automated fluorescence microscope at 488 nm (blue laser). Using an in-house LIMS system, inhibition dose response curves for each compound were calculated and the half maximal effective concentration (EC50) was determined. Therefore, the percent inhibition (I) for every test concentration is calculated using the following formula: I=100*(ST-SCC)/(SVC-SCC), ST, SCC and SVC are the amount of eGFP signal in the test compound, cell control and virus control wells, respectively. The EC50 represents the concentration of a compound at which the virus replication is inhibited with 50%, as measured by a 50% reduction of the eGFP fluorescent intensity compared to the virus control. The EC50 is calculated using linear interpolation (Table 1).

| SMILES | SI [1] | SI [2] | SI [3] | SI [4] | SI [5] |
| --- | --- | --- | --- | --- | --- |
| COc1cc(NC(C(=O)N2CCc3cc(OC)c(C(F)(F)F)cc32)c2ccc(Cl)cc2)cc(OCCO)c1 (single isomer, unassigned) [Compound 7B, 2-(4-chlorophenyl)-2-((3-(2-hydroxyethoxy)-5-methoxyphenyl)amino)-1-(5-methoxy-6-(trifluoromethyl)indolin-1-yl)ethanone] | 802 | 25 | 155 | 5780 | 10000 |
| COc1cc(NC(C(=O)N2CCc3cc(F)c(C(F)(F)F)cc32)c2ccc(Cl)cc2)cc(OCCO)c1 (single isomer, unassigned) [Compound 12A, 2-(4-chlorophenyl)-1-(5-fluoro-6-(trifluoromethyl)indolin-1-yl)-2-((3-(2-hydroxyethoxy)-5-methoxyphenyl)amino)ethanone] | >934 | 24 | >67 | >794 | 5020 |
| COc1cc(NC(C(=O)N2CCc3c(C)cc(C(F)(F)F)cc32)c2ccc(Cl)cc2)cc(OCCO)c1 (single isomer, unassigned) [Compound 10B, 2-(4-chlorophenyl)-2-((3-(2-hydroxyethoxy)-5-methoxy-phenyl)amino)-1-(4-methyl-6-(trifluoromethyl)indolin-1-yl)ethanone] | >1810 | >13 | >199 | 2670 | 5470 |
| COc1cc(NC(C(=O)N2CCc3ccc(C(F)(F)F)cc32)c2ccc(Cl)cc2)cc(OCCO)c1 (single isomer, unassigned) [Compound 4B, 2-(4-chlorophenyl)-2-((3-(2-hydroxyethoxy)-5-methoxyphenyl)amino)-1-(6-(trifluoromethyl)indolin-1-yl)ethanone] | >4.6 |  | 7.6 | 17 | 11 |
| COc1cc(NC(C(=O)N2CCc3cc(OC)c(C(F)(F)F)cc32)c2ccc(Cl)cc2OC)cc(OCCO)c1 (single isomer, unassigned) [Compound 11B, 2-(4-chloro-2-methoxyphenyl)-2-((3-(2-hydroxyethoxy)-5-methoxyphenyl)amino)-1-(5-methoxy-6-(trifluoromethyl)indolin-1-yl)ethanone] | >352 | 20 | >139 | 4840 | >33700 |
| COc1cc(NC(C(=O)N2CCc3ccc(C(F)(F)F)cc32)c2ccc(Cl)cc2)cc(OCCO)c1 (single isomer, unassigned) [Compound 4A, 2-(4-chlorophenyl)-2-((3-(2-hydroxyethoxy)-5-methoxyphenyl)amino)-1-(6-(trifluoromethyl)indolin-1-yl)ethanone] | 1270 | 11 | 179 | 894 | 3878 |
| COc1cc(NC(C(=O)N2CCc3c(C)cc(OC(F)(F)F)cc32)c2ccc(Cl)cc2)cc(OCCO)c1 (single isomer, unassigned) [Compound 9B, 2-(4-chlorophenyl)-2-((3-(2-hydroxyethoxy)-5-methoxy-phenyl)amino)-1-(4-methyl-6-(trifluoromethoxy)indolin-1-yl)ethanone] | >1800 | 23 | >191 | 11900 | 8440 |
| COc1cc(NC(C(=O)N2CCc3ccc(C(F)(F)F)cc32)c2ccc(Cl)cc2F)cc(OCCO)c1 (single isomer, unassigned) [Compound 2B, 2-(4-chloro-2-fluorophenyl)-2-((3-(2-hydroxyethoxy)-5-methoxyphenyl)amino)-1-(6-(trifluoromethyl)indolin-1-yl)ethanone] | 2670 | 33 | 156 | 1880 | 3750 |
| COc1cc(NC(C(=O)N2CCc3ccc(OC(F)(F)F)cc32)c2ccc(Cl)cc2OC)cc(OCCO)c1 (single isomer, unassigned) [Compound 5A, 2-(4-chloro-2-methoxyphenyl)-2-((3-(2-hydroxyethoxy)-5-methoxyphenyl)amino)-1-(6-(trifluoromethoxy)indolin-1-yl)ethanone] | 1650 | 16 | 214 | 2680 | 7000 |
| COc1cc(NC(C(=O)N2CCc3cc(OC)c(OC(F)(F)F)cc32)c2ccc(Cl)cc2)cc(OCCO)c1 (single isomer, unassigned) [Compound 13A, 2-(4-chlorophenyl)-2-((3-(2-hydroxyethoxy)-5-methoxyphenyl)amino)-1-(5-methoxy-6-(trifluoromethoxy)indolin-1-yl)ethanone] | >416 | >9.4 | >78 | >4280 | 3970 |
| COc1cc(NC(C(=O)N2CCc3cc(OC)c(C(F)(F)F)cc32)c2ccc(Cl)cc2F)cc(OCCO)c1 (racemic) [Compound 8, 2-(4-chloro-2-fluorophenyl)-2-((3-(2-hydroxyethoxy)-5-methoxyphenyl)amino)-1-(5-methoxy-6-(trifluoromethyl)indolin-1-yl)ethanone] |  |  |  |  | >6100 |
| COc1cc(NC(C(=O)N2CCc3cc(F)c(C(F)(F)F)cc32)c2ccc(Cl)cc2)cc(OCCO)c1 (racemic) [Compound 12, 2-(4-chlorophenyl)-1-(5-fluoro-6-(trifluoromethyl)indolin-1-yl)-2-((3-(2-hydroxyethoxy)-5-methoxyphenyl)amino)ethanone] |  |  |  |  | 966 |
| COc1cc(NC(C(=O)N2CCc3cc(OC)c(OC(F)(F)F)cc32)c2ccc(Cl)cc2)cc(OCCO)c1 (racemic) [Compound 13, 2-(4-chlorophenyl)-2-((3-(2-hydroxyethoxy)-5-methoxyphenyl)amino)-1-(5-methoxy-6-(trifluoromethoxy)indolin-1-yl)ethanone] |  |  |  |  | 2630 |
